Results of unrelated studies side by side (data: NIAID ChemDB).

All rows: tests in culture; agent: Mycobacterium kansasii; measure: MIC

Lines come from different laboratories, so protocols vary. Blank or dashed fields: not listed here.

{"compound": "CC(C)C[C@H](NC(=O)OCc1ccccc1)c1cnc(-c2ccccc2)[nH]1", "strain": "My 235/80", "setting": "14 d", "value": "500 µM"}
{"compound": "O=C(Nc1cccc(Cl)c1)c1cc(Cl)ccc1OS(=O)(=O)c1ccccc1", "strain": "235/80", "setting": "14 d", "value": "16 µM"}
{"compound": "CCC(C)c1ccc(-n2c(=S)oc3ccc(Br)cc3c2=S)cc1", "strain": "6509/96", "read by": "broth dilution", "setting": "21 d", "value": "4 µM"}
{"compound": "O=C(NC1CCCCC1)N(C(=O)c1cnccn1)C1CCCCC1", "strain": "235/80", "setting": "21 d", "value": ">500 µM"}
{"compound": "C[C@@H](NC(=O)OCc1ccccc1)c1cnc(-c2ccc([N+](=O)[O-])cc2)[nH]1", "strain": "My 235/80", "setting": "7 d", "value": ">125 µM"}
{"compound": "Nc1ccc(C(=O)O)c(O)c1", "strain": "235/80", "setting": "14 d", "value": "1000 µM"}
{"compound": "S=c1oc2ccc(Br)cc2c(=S)n1-c1ccccc1", "strain": "My 235/80", "setting": "21 d", "value": "2 µM"}
{"compound": "O=C(N[C@@H](Cc1ccccc1)c1cnc(-c2ccc([N+](=O)[O-])cc2)[nH]1)OCc1ccccc1", "strain": "My 6509/96", "setting": "7 d", "value": "8 µM"}
{"compound": "O=C(Oc1cc(Cl)ccc1C(=O)Nc1ccc(Br)cc1)c1ccccc1", "strain": "235/80", "read by": "broth dilution", "setting": "7 d", "value": "2 µM"}
{"compound": "NC(=O)c1cnccn1", "strain": "6509/96", "setting": "21 d", "value": "1000 µM"}
{"compound": "O=C(Oc1cc(Cl)ccc1C(=O)Nc1ccc(Cl)cc1)c1ccccc1", "strain": "6509/96", "read by": "broth dilution", "setting": "14 d", "value": "2 µM"}
{"compound": "CCC(C)c1ccc(-n2c(=S)oc3cc(Cl)ccc3c2=S)cc1", "strain": "6509/96", "read by": "broth dilution", "setting": "21 d", "value": "2 µM"}
{"compound": "O=C(Oc1ccc(Cl)cc1C(=O)Nc1ccc(Br)cc1)c1ccccc1", "strain": "6509/96", "read by": "broth dilution", "setting": "14 d", "value": "4 µM"}
{"compound": "O=C(OCc1ccccc1)N1CCC[C@H]1c1cnc(-c2ccccc2)[nH]1", "strain": "My 235/80", "setting": "14 d", "value": "62.5 µM"}
{"compound": "O=C(Nc1cccc(Cl)c1)c1ccc(Cl)cc1OS(=O)(=O)c1ccccc1", "strain": "6509/96", "setting": "14 d", "value": "500 µM"}
{"compound": "N/C(=N\\N=C\\c1ccccc1)SCc1ccc(Br)cc1", "strain": "6509/96", "read by": "broth dilution", "setting": "21 d", "value": "62.5 µM"}
{"compound": "O=C(Oc1cc(Cl)ccc1C(=O)Nc1cccc(Cl)c1)c1ccccc1", "strain": "235/80", "read by": "broth dilution", "setting": "14 d", "value": "4 µM"}
{"compound": "O=C(Oc1ccc(Cl)cc1C(=O)Nc1cccc(C(F)(F)F)c1)c1cnccn1", "strain": "235/80", "setting": "14 d", "value": "8 µM"}
{"compound": "C[C@H](NC(=O)OCc1ccccc1)c1cnc(-c2ccccc2)[nH]1", "strain": "My 235/80", "setting": "14 d", "value": "250 µM"}
{"compound": "N/C(=N\\N=C\\c1ccccc1O)SCc1cccc(Cl)c1", "strain": "6509/96", "read by": "broth dilution", "setting": "21 d", "value": "32 µM"}
{"compound": "O=C(Oc1cc(Cl)ccc1C(=O)Nc1cccc(F)c1)c1cnccn1", "strain": "6509/96", "setting": "7 d", "value": "4 µM"}
{"compound": "O=c1oc2ccc(F)cc2c(=S)n1-c1cccc(F)c1", "strain": "6509/96", "setting": "21 d", "value": "16 µM"}
{"compound": "N/C(=N\\N=C\\c1cc(Cl)ccc1O)SCc1ccc(F)cc1", "strain": "ATCC 12478", "read by": "broth dilution", "setting": "21 d", "value": "32 µM"}
{"compound": "COc1ccc2oc(=O)n(-c3ccc(C)cc3)c(=S)c2c1", "strain": "6509/96", "setting": "21 d", "value": "8 µM"}
{"compound": "N/C(=N\\N=C\\c1cc(Br)ccc1O)SCc1ccc(F)cc1", "strain": "ATCC 12478", "read by": "broth dilution", "setting": "21 d", "value": "32 µM"}
{"compound": "C[C@H](NC(=O)OCc1ccccc1)c1cnc(-c2ccc([N+](=O)[O-])cc2)[nH]1", "strain": "My 235/80", "setting": "7 d", "value": ">125 µM"}
{"compound": "O=C(Nc1cccc(C(F)(F)F)c1)c1ccc(Cl)cc1OS(=O)(=O)c1ccccc1", "strain": "6509/96", "setting": "21 d", "value": "125 µM"}
{"compound": "COc1ccc2oc(=S)n(-c3ccc(Cl)cc3)c(=S)c2c1", "strain": "6509/96", "setting": "14 d", "value": "16 µM"}
{"compound": "N/C(=N\\N=C\\c1ccccc1)SCc1ccccc1", "strain": "ATCC 12478", "read by": "broth dilution", "setting": "14 d", "value": "62.5 µM"}
{"compound": "COC(=O)c1cnccn1", "strain": "235/80", "setting": "21 d", "value": ">500 µM"}
{"compound": "COc1ccc(CS/C(N)=N/N=C/c2ccccc2O)cc1", "strain": "6509/96", "read by": "broth dilution", "setting": "14 d", "value": "250 µM"}
{"compound": "Cc1ccc2oc(=S)n(-c3ccccc3)c(=S)c2c1", "strain": "6509/96", "setting": "14 d", "value": "2 µM"}
{"compound": "O=C(Oc1cc(Cl)ccc1C(=O)Nc1ccc(F)cc1)c1ccccc1", "strain": "235/80", "read by": "broth dilution", "setting": "7 d", "value": "2 µM"}
{"compound": "O=C(Nc1ccc(Cl)cc1)c1cc(Cl)ccc1OS(=O)(=O)c1ccccc1", "strain": "235/80", "setting": "7 d", "value": "8 µM"}
{"compound": "N/C(=N\\N=C\\c1cc(Cl)ccc1O)SCc1ccc(Cl)cc1", "strain": "ATCC 12478", "read by": "broth dilution", "setting": "21 d", "value": "32 µM"}
{"compound": "O=C(Nc1ccc(Cl)cc1)c1ccc(Cl)cc1OS(=O)(=O)c1ccccc1", "strain": "235/80", "setting": "14 d", "value": "16 µM"}
{"compound": "O=C(Oc1ccc(Cl)cc1)c1cnccn1", "strain": "235/80", "setting": "14 d", "value": "500 µM"}

3 of the rows above, restated:

compound | strain | read by | setting | value
O=C(Oc1cc(Cl)ccc1C(=O)Nc1ccc(Br)cc1)c1ccccc1 | 235/80 | broth dilution | 7 d | 2 µM
O=C(Oc1ccc(Cl)cc1C(=O)Nc1cccc(C(F)(F)F)c1)c1cnccn1 | 235/80 | - | 14 d | 8 µM
N/C(=N\N=C\c1ccccc1)SCc1ccccc1 | ATCC 12478 | broth dilution | 14 d | 62.5 µM